Test results as given in the supplement of paper PMC9931576.
Human monoclonal antibodies against the spike receptor-binding domain (heavy:light variable regions). IC50 against pseudoviruses bearing the spike of naturally observed variants; lower = stronger; >10 µg/ml means not reached at the top dose. No active / inactive call. The stated detection limit is 0.0005 µg/ml; values near or below 0.001 µg/ml lie at the floor of the assay.

How the values were obtained:
Assay in all cases: pseudovirus neutralization IC50; higher = weaker neutralization
[1] = target: SARS-CoV-2 Omicron BA.1 spike pseudovirus
Protocol: (§1)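 Single-round VSV luciferase pseudovirus mixed with antibody dilutions for 1 h and put on Huh-7 cells for about a day; IC50 from the dose curve.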

[2] = target: SARS-CoV-2 Omicron BA.2 spike pseudovirus
Protocol: as §1

[3] = target: SARS-CoV-2 Omicron BA.2.75 spike pseudovirus
Protocol: as §1

[4] = target: SARS-CoV-2 Omicron BA.5 spike pseudovirus
Protocol: as §1

[5] = target: SARS-CoV-2 Omicron BQ.1.1 spike pseudovirus
Protocol: as §1

[6] = target: SARS-CoV-2 Omicron XBB spike pseudovirus
Protocol: as §1

[7] = target: SARS-CoV-2 early D614G spike pseudovirus
Protocol: as §1

Binder | pseudovirus neutralization IC50 [1] [µg/mL] | pseudovirus neutralization IC50 [2] [µg/mL] | pseudovirus neutralization IC50 [3] [µg/mL] | pseudovirus neutralization IC50 [4] [µg/mL] | pseudovirus neutralization IC50 [5] [µg/mL] | pseudovirus neutralization IC50 [6] [µg/mL] | pseudovirus neutralization IC50 [7] [µg/mL]
BD55-6293 (protein) chain 1: QLQLQESGPGLVKPSETLSLTCTVSGGSISSSNYYWGWIRQPPGKGLEWIGNIYYSGITYYYPSLKSRVTISVDTSKNQFSLKLSSVTAADTAIYHCARLVRRWQDFVASGAFDIWGQGTMVTVSS chain 2: QSALTQPASVSGSLGQSITISCTGTSSDVGSYNLVSWYQQHPGKAPKIIIYEVTKRPPGVSNRFSGSKSGNTASLTISGLQAEDEADYYCCSHAGSSMVFGGGTKLTVL | > 10 | > 10 | > 10 | > 10 | > 10 | > 10 | > 10
BD55-6306 (protein) chain 1: QVQLVQSGAEVKKPGSSVKVSCKASGGTFSSYTISWVRQAPGQGLEWMGRIIPIVARANYAQKFQGRVTITADKSMSTVYMEMRSLRSEDTAVYYCATEGLRGYSGYDFVINWFDPWGQGTLVTVSS chain 2: QSVLTQPPSVSGAPGQRVTISCTGSSSNIGAGYEVHWYQQFPGTAPKLLIYDDNNRPSGVPDRFSGSKSGTSASLAITGLQAEDEADYYCQSFDSSLSGSALFGGGTKLTVL | > 10 | > 10 | > 10 | > 10 | > 10 | > 10 | 0.158
BD55-6308 (protein) chain 1: QVQLVQSGAEMKKPGASVKVSCKASGFTFTNYRFSWVRQAPGQGLEWMGWISAYNGDTHYAQTLQGRVTMITDTSTNTAYMELRSLRSDDTAVYYCARGGVVGGYSGYDLLDDISFDSWGQGTLVTVSS chain 2: SYELTQPPSVSVSPGQTARITCSGDVLPNQYVYWYQQRPGQAPVLMIFKDTERPSGIPERFSGSRSGTSVTLTITGVQAEDEADYYCQSAVSSGAFFSYVFGTGTKVTVL | > 10 | > 10 | > 10 | > 10 | > 10 | > 10 | 0.148
BD55-6292 (protein) chain 1: EVQLVESGGGLVQPGGSLRLSCAASGFTFSNYAMHWVRQAPGKGLEYVSAITSDGGGKFYADAVKGRFTISRDNSRNTLFLQMGGLITEDTAVYYCAREGSGYRMYFDYWGQGALVTVAS chain 2: DIQMTQSPSSLSASVGDRVTITCRASQSISTNLNWYQQKPGKAPKLLIYIASSLQSGVPSRFSGSGSGTDFTLTISSLQPEDFATYYCQQTYTTPSYTFGQGTKLEIK | > 10 | > 10 | > 10 | > 10 | > 10 | > 10 | > 10
BD55-6304 (protein) chain 1: EVQLVQSGAELKKPGESLKISCKASGYTFSYSWIAWVRQKPGKGLEWMGVLYPDDSDTRYSPSFQGQVTISADRSTDTAYLEWSSLKASDTAIYYCARLWSGYMYGIIENWGQGTLVTVSS chain 2: DIVMTQSPDSLAVSLGERATINCKSSQSVLYSSNNKNYLAWYQQKPGQPPKLLIFWASTRESGVPDRFSGSGSGTDFTLTISSLQAEDVAVYYCQQYSNSLPTFGQGTKVEIK | 1.24 | 0.89 | 1.17 | 0.875 | > 10 | > 10 | 1.19
BD55-6296 (protein) chain 1: QVQLVQSGAEVKKPGASVKVSCKASGYTFTNYYLHWVRLAPRQGLEWMGMINPSGGESTYAQKFQGRATMTRDTSTSTVYMELSSLRSEDTAVYYCARDGGAAASHYYYYMDVWGIGTTVTVSS chain 2: DIQMTQSPSSLSASVGDRVTITCRASQSISNFLNWYQLTPGKAPKVLIYAASNLQSGVPSRFSGSGSGTDFTLTISSLQPEDFATYYCQQSYSTPTWTFGQGTKVEIK | > 10 | > 10 | > 10 | > 10 | > 10 | > 10 | > 10
